Reference: PMC3049263 (Bioorganic & medicinal chemistry, 2010)

System: recombinant HIV-1YU2
Assay type: cell-based
Conditions: CD4-deficient Cf2Th-CCR5 cells

O=C(Nc1ccc(Cl)c(F)c1)C(=O)NC1CCN(C2CCCCC2)C1 (centres unmarked) [Compound 47]
Enhancement of viral infectivity (in words): ineffective at enhancing viral infectivity

O=C(NCC1CCN(C2CC2)C1)C(=O)Nc1ccc(Cl)c(F)c1 (centres unmarked) [Compound 46]
Enhancement of viral infectivity (in words): ineffective at enhancing viral infectivity
